Structures are written as SMILES.

The target of one experiment is HLA-A*02:01 (Homo sapiens, UniProt P04439, D140Y/D185E/D98H/E176V/E277Q/G131W/G231S/I119V/I121R/I166T/I218V/L300P/L318F/N151K/N90K/P208A/P217A/Q86G/Q94H/R138H/R169H/T345S). As to the kind of experiment: biochemical. In kind it is binding.
For the next experiment, the target named is B*3501 (Homo sapiens, UniProt P01889, A329T/A93T/A95T/C349S/D201E/D98Y/E176V/E187L/E204Q/E69T/I218V/K202T/L119I/Q94N/R155S/R180L/S121R/S35A/S48A/T118I/V127L/V306I/V36M/Y140S/Y91F). As to the kind of experiment: biochemical. In kind it is binding.

The Kd is the free concentration of one partner at which half of the binding sites on the other are occupied at equilibrium, for simple one-to-one binding. Low readings indicate a tighter complex, high ones a looser complex. Regarding `CC(C)C[C@H](NC(=O)[C@H](Cc1c[nH]c2ccccc12)NC(=O)CNC(=O)[C@H](C)NC(=O)[C@H](CC(C)C)NC(=O)[C@@H](N)C(C)C)C(=O)N[C@@H](Cc1ccccc1)C(=O)N[C@@H](Cc1c[nH]cn1)C(=O)N[C@H](C(=O)O)C(C)C` [Peptide 15879], on HLA-A*02:01, the dissociation constant (Kd) was found to be 1 nM.

Regarding `CSCC[C@H](NC(=O)[C@H](CC(C)C)NC(=O)[C@H](CO)NC(=O)[C@H](Cc1c[nH]c2ccccc12)NC(=O)[C@H](CCSC)NC(=O)[C@H](CCC(N)=O)NC(=O)[C@H](C)NC(=O)[C@@H](N)Cc1ccc(O)cc1)C(=O)N[C@@H](Cc1ccc(O)cc1)C(=O)O` [Peptide 14585], on B*3501, the equilibrium dissociation constant (Kd) stood at 1 nM.

For the origin of these results see PMC3198402 (PLoS ONE, 2011).
